Measured values from several laboratories, pooled; numbers as filed in NIAID ChemDB.

All rows: whole-cell or culture tests; species: Mycobacterium tuberculosis

ECn: concentration that inhibits the pathogen or its effect by n%. Inhibition is in % at the dose shown (toxicity tests: loss of growth or viability). Blank or dashed fields: not listed here. Lines come from different laboratories, so protocols vary. MIC bound: limit read from a one-dose screen.

compound,read by,strain or isolate,tested at,read-out,result
CCCCCCCCC=CCCCCCCCCNCc1ccc(OC)c(OC)c1,,H37Ra,,MIC,<25 µg/mL
CCCC1=[N+]([O-])c2ccccc2C1=O,MTT,H37Rv,,EC50,39.1 µM
CC(C)(C)c1cc(C(C)(C)C)c2oc(-c3ccc(Br)cc3)nc2c1,BACTEC,H37Rv,6.25 µg/mL,inhibition,94%
Cn1c(=O)sn(-c2ccccc2)c1=O,broth dilution,H37Rv,,MIC,6.25 µg/mL
CN(C)c1ccc(-c2nc3cc(C(C)(C)C)cc(C(C)(C)C)c3o2)cc1,BACTEC,H37Rv,,MIC,>6.25 µg/mL
C=C1CC/C=C(\C)CC[C@@H]2[C@@H]1CC2(C)C,BACTEC,H37Rv,128 µg/mL,inhibition,99%
CCOC(=O)Cc1csc(/N=C2/NC(=O)C(c3ccccc3)S2)n1,,H37Rv,,MIC,>12.5 µg/mL
Nc1ccccc1NC(=S)C(=O)Nc1ccc2ccccc2c1,,H37Rv,,MIC,333 µM
CN1C(=O)[C@H]2N(N(C)C1=O)[C@]1(Br)C(=O)N(C)C(=O)[C@]21Br,BACTEC,H37Rv,12.8 µg/mL,inhibition,13%
CC(=O)OC/C=C(\C)CC/C=C(\C)CCC=C(C)C,resazurin,H37Rv,6.25 µg/mL,inhibition,31%
O=C(NCCCBr)c1csc(-c2csc(CCNC(=O)C(F)(F)F)n2)n1,BACTEC,H37Rv,,MIC bound,>12.8 µg/mL
C=C[C@@](C)(CC[C@H]1C(=C)CC[C@H]2C(C)(C)CCC[C@]12C)OC(C)=O,resazurin,H37Rv,6.25 µg/mL,inhibition,8%
CCOC(=O)Cc1csc(/N=C2/NC(=O)/C(=C\c3ccc(C(=O)OC)cc3)S2)n1,,H37Rv,,MIC,>12.5 µg/mL
C=C1C(=O)O[C@@H]2[C@H]3C(C)=CC(=O)C3=C(C)CC[C@@H]12,BACTEC,H37Rv,12.5 µg/mL,inhibition,10%
CC(C)c1ccc(/C=C2/NC(=S)NC2=O)cc1,,H37Rv,,EC50,<6.25 µg/mL
CCCCCCCCC=CCCCCCCCCNCc1cccnc1,,Sensitive strains,,MIC,3.12 µg/mL
CC(=O)SCC(CO)SC(C)=O,,H37Rv,,MIC,0.8 µg/mL
CCOC(=O)c1ccc2c(c1)P(=O)(O)c1cc(C(=O)OCC)ccc1O2,BACTEC,H37Rv,,MIC bound,>12.5 µg/mL
CCOC(=O)Cc1csc(NC(=O)CCl)n1,,H37Rv,,EC50,<12.5 µg/mL
O=c1sn(-c2ccc(F)c(Cl)c2)c(=O)n1C1Cc2ccccc2C1,broth dilution,H37Rv,,MIC,6.25 µg/mL
CC(=O)OC1C(=O)[C@H]2[C@@H](CC=C3CC(O)CC(O)[C@@]32C)[C@@H]2CC[C@H]([C@H](C)C3CC(C)C(C)(C)O3)[C@@]12C,BACTEC,H37Rv,,MIC bound,>12.5 µg/mL
CC[C@H]1OC(=O)[C@H](C)[C@@H](O[C@H]2C[C@@](C)(OC)[C@@H](O)[C@H](C)O2)[C@H](C)[C@@H](O[C@@H]2O[C@H](C)C[C@H](N(C)C)[C@H]2O)[C@](C)(OC)C[C@@H](C)C(=O)[C@H](C)[C@@H](O)[C@]1(C)O,,92-0492 MDR (INH RIF-resistant),,MIC,4 µg/mL
Cc1ccc(NC(=O)C(=S)Nc2ccccc2O)cc1,,H37Rv,,MIC,24.7 µM
CCCCOc1ccc(NC(=S)Nc2ccc(OCCN(CC)CC)cc2)cc1,,BCG #256,,MIC,31.3 µg/mL
N#CC(Nc1cc(F)ccc1F)c1ccc(OCc2nc3ccccc3[nH]2)cc1,resazurin,H37Rv,,MIC,0.19 µg/mL
O=C1NC(=S)N/C1=C/c1cccc(OCc2ccccc2)c1,,H37Rv,,EC50,<6.25 µg/mL
Cc1ccccc1NC(C#N)c1ccc(OCc2nc3ccccc3[nH]2)cc1,resazurin,H37Rv,6.25 µg/mL,inhibition,45%
Cc1ccc(NC(=O)C(=S)Nc2ccc(C)cc2)cc1,,H37Rv,,MIC,37 µM
C[N+]1(CC(=O)c2ccc(O)c(O)c2)CCOCC1,BACTEC,H37Rv,,MIC bound,>12.5 µg/mL
CCCCCCCCC=CCCCCCCCCNCc1ccc(O)c(OC)c1,,Sensitive strains,,MIC,1.56 µg/mL
O=C(NC1CCCCC1)C(=S)Nc1ccccc1O,,H37Rv,,MIC,24.7 µM
CO[C@H]1/C=C/O[C@@]2(C)Oc3c(C)c(O)c4c(=O)c(c5oc6cc(N7CCN(CC(C)C)CC7)cc(=O)c6nc5c4c3=C2O)NC(=O)/C(C)=C\C=C\[C@H](C)[C@H](O)[C@@H](C)[C@@H](O)[C@@H](C)[C@H](OC(C)=O)[C@@H]1C,,Kurono,,MIC,0.002 µg/mL
O=C1C(c2ccc(CO)cc2)=[N+]([O-])c2ccccc21,MTT,H37Rv,,EC50,15.4 µM
Cc1sccc1C(=S)Nc1ccc(Cl)c(/C=N/OC(C)(C)C)c1,BACTEC,H37Rv,,MIC bound,≤12.5 µg/mL
CO[C@H]1/C=C/O[C@@]2(C)Oc3c(C)c(O)c4c(O)c(c5c(c4c3C2=O)NC2(CCN(CC(C)C)CC2)N=5)=NC(=O)/C(C)=C\C=C\[C@H](C)[C@H](O)[C@@H](C)[C@@H](O)[C@@H](C)[C@H](OC(C)=O)[C@@H]1C,,H37Rv,,MIC,0.005 µg/mL
Cc1ccc(NC(C#N)c2ccc(OCc3nc4ccccc4[nH]3)cc2)cc1,resazurin,H37Rv,6.25 µg/mL,inhibition,54%
CO[C@H]1/C=C/O[C@@]2(C)Oc3c(C)c(O)c4c(O)c(c5c(c4c3C2=O)NC2(CCN(C)CC2)N=5)=NC(=O)/C(C)=C\C=C\[C@H](C)[C@H](O)[C@@H](C)[C@@H](O)[C@@H](C)[C@H](OC(C)=O)[C@@H]1C,,H37Rv,,MIC,0.0025 µg/mL
NCC[C@H](O)C(=O)N[C@@H]1C[C@H](N)[C@@H](O[C@H]2O[C@H](CN)[C@@H](O)[C@H](O)[C@H]2O)[C@H](O)[C@H]1O[C@H]1O[C@H](CO)[C@@H](O)[C@H](N)[C@H]1O,,H37Rv,,MBC,4 µg/mL
O=C1C(c2ccc(Oc3ccccc3)cc2)=[N+]([O-])c2ccccc21,MTT,H37Rv,,MIC,6.25 µM
C/C=C(/C)C(=O)OC1CC[N+]2([O-])CC=C(COC(=O)C(O)(C(C)OC)C(C)(C)O)C12,BACTEC,H37Rv,,MIC,≥128 µg/mL
CCN(CC)CCOc1ccc(NC(=S)Nc2ccc(OCC(C)C)cc2)cc1,,H37RV #164,,MIC,31.3 µg/mL
CCOC(=O)C(=O)SCC1CS1,,H37Rv,,MIC,12.5 µg/mL
O=C1C(c2ccccn2)=[N+]([O-])c2ccccc21,MTT,H37Rv,,EC50,17 µM
CCC(=O)SCC1CS1,,H37Rv,,MIC,1.56 µg/mL
N#CC(Nc1ccc(F)cc1)c1ccc(OCc2nc3ccccc3[nH]2)cc1,resazurin,H37Rv,,MIC,1.56 µg/mL
CCOc1ccc(NC(=S)Nc2ccc(OCC(C)C)cc2)cc1,,H37RV #302,,MIC,2 µg/mL
CC(=O)SCC(CSC(C)=O)SC(C)=O,,H37Rv,,MIC,1.6 µg/mL
O=C1CSC(c2cccc(C(F)(F)F)c2)N1c1nncs1,BACTEC,H37Rv,12.5 µg/mL,inhibition,36%
N#CC(Nc1ccccc1Cl)c1ccc(OCc2nc3ccccc3[nH]2)cc1,resazurin,H37Rv,6.25 µg/mL,inhibition,91%
O=C1NC(=S)N/C1=C/c1ccc2ccccc2c1,,H37Rv,,EC50,<6.25 µg/mL
CCOC(=O)Cc1csc(/N=C2/NC(=O)C(CC)S2)n1,,H37Rv,,MIC,>12.5 µg/mL
CC(=O)OC/C=C(\C)CC/C=C(\C)CC/C=C(\C)CCC=C(C)C,resazurin,H37Rv,6.25 µg/mL,inhibition,98%
COc1ccc2cc(C3=[N+]([O-])c4ccccc4C3=O)ccc2c1,MTT,H37Rv,,EC50,1.8 µM
CC(C)(C)c1cc(C(C)(C)C)c2oc(-c3cccs3)nc2c1,BACTEC,H37Rv,6.25 µg/mL,inhibition,<90%
CC(C)=CCC/C(C)=C/COC1CCCCO1,resazurin,H37Rv,6.25 µg/mL,inhibition,8%
NC[C@H]1O[C@H](O[C@H]2[C@H](O)[C@@H](O[C@H]3O[C@H](CO)[C@@H](O)[C@H](N)[C@H]3O)[C@H](N)C[C@@H]2N)[C@H](N)C[C@@H]1O,,H37Rv,,MIC,8 µg/mL
CCCN(CCC)CCCOC(=O)c1ccc2oc3ccc(C(=O)OCCCN(CCC)CCC)cc3c2c1,BACTEC,H37Rv,12.5 µg/mL,inhibition,99%
CCCCCCCCCCCCNC(CC(=O)OCC)c1cccc(Cl)c1,,Sensitive strains,,MIC,25 µg/mL
CCOC(=O)c1c(C)[nH]c(-c2csc(C)n2)c1C,BACTEC,H37Rv,,MIC bound,>12.5 µg/mL
O=C1NC(=O)/C(=C/c2cccc(OCc3ccccc3)c2)N1,,H37Rv,6.25 µg/mL,inhibition,86%
CO[C@H]1/C=C/O[C@@]2(C)Oc3c(C)c(O)c4c(O)c(c(/C=N/N5CCN(C)CC5)c(O)c4c3C2=O)NC(=O)/C(C)=C\C=C\[C@H](C)[C@H](O)[C@@H](C)[C@@H](O)[C@@H](C)[C@H](OC(C)=O)[C@@H]1C,,90-0145 (drug-susceptible),,MIC,0.4 µg/mL
CCCCCCCCNC(CC(=O)OCC)c1ccccc1,,H37Ra,,MIC,<25 µg/mL
CCOC(=O)Cc1csc(/N=C2/NC(=O)/C(=C\c3ccc([N+](=O)[O-])o3)S2)n1,,H37Rv,,MIC,>12.5 µg/mL
Cc1ccc(S(=O)(=O)NC(=O)Oc2nc3cc(Cl)ccc3o2)cc1,BACTEC,H37Rv,12.5 µg/mL,inhibition,-5%
CC(=O)CCC(=O)SCC1CS1,,H37Rv,,MIC,25 µg/mL
CO[C@H]1/C=C/O[C@@]2(C)Oc3c(C)c(O)c4c(O)c(c(N=CN5CCCCCC5)c(O)c4c3C2=O)NC(=O)/C(C)=C\C=C\[C@H](C)[C@H](O)[C@@H](C)[C@@H](O)[C@@H](C)[C@H](OC(C)=O)[C@@H]1C,,H37Rv,,MIC,0.0025 µg/mL
O=CSCCCC1CS1,,H37Rv,,MIC,3.125 µg/mL
O=c1sn(-c2ccc([N+](=O)[O-])cc2Cl)c(=O)n1CC1CC1,broth dilution,H37Rv,,MIC,25 µg/mL
CO[C@@H]1/C=C\C=C(/C)C(=O)NC2=CC(=O)C(N)=C(C[C@@H](C)C[C@@H](OC)[C@@H](O)[C@H](C)/C=C(\C)[C@H]1OC(N)=O)C2=O,BACTEC,H37Rv,,MIC bound,>12.5 µg/mL
CCOC(=O)Cc1csc(/N=C2/NC(=O)/C(=C\c3ccc([N+](=O)[O-])cc3[N+](=O)[O-])S2)n1,,H37Rv,,MIC,>12.5 µg/mL
Cc1ccc(NC2=NCCS2)cc1Cl,BACTEC,H37Rv,12.5 µg/mL,inhibition,-15%
CCCCCCCCNC(CC(=O)OCC)c1cccc([N+](=O)[O-])c1,,Sensitive strains,,MIC,25 µg/mL
C=CCCCCCCCCC(=O)ON(Cc1ccc(O)c(OC)c1)C(=O)C(F)(F)F,resazurin,H37Rv,,MIC bound,>6.25 µg/mL
COc1ccc2c(c1)C(=O)C(c1ccc(Cl)c(C(F)(F)F)c1)=[N+]2[O-],MTT,H37Rv,,EC50,6.6 µM
CC[C@@]1(O)C(=O)OCc2c1cc1n(c2=O)Cc2cc3c(OC)cccc3nc2-1,resazurin,H37Rv,6.25 µg/mL,inhibition,14%
CCOC(=O)CCCOc1ccc(/C=C2/NC(=S)NC2=O)cc1,,H37Rv,,EC50,<6.25 µg/mL
COc1ccc2c(c1)SC1=NNC(=O)CN12,resazurin,H37Rv,,MIC bound,>6.25 µg/mL
C=CC(C)(O)CCC=C(C)CCC=C(C)C,resazurin,H37Rv,,MIC,32 µg/mL
CC1CCCN(C(=S)S)C1.CC1CCCNC1,,PZA-R,,MIC,1.6 µg/mL
Cc1cccc(-c2nc3cc(C(C)(C)C)cc(C(C)(C)C)c3o2)n1,BACTEC,H37Rv,6.25 µg/mL,inhibition,<90%
C=CCc1cc(OC)c2c(c1OC)OCO2,BACTEC,H37Rv,12.5 µg/mL,inhibition,0%
CCOC(=O)c1cccc(-n2sc(=O)n(C3Cc4ccccc4C3)c2=O)c1,broth dilution,H37Rv,,MIC,6.25 µg/mL

A second listing of 7 rows from above:

compound,read by,strain or isolate,tested at,read-out,result
Cc1ccc(NC2=NCCS2)cc1Cl,BACTEC,H37Rv,12.5 µg/mL,inhibition,-15%
C=C[C@@](C)(CC[C@H]1C(=C)CC[C@H]2C(C)(C)CCC[C@]12C)OC(C)=O,resazurin,H37Rv,6.25 µg/mL,inhibition,8%
O=C1NC(=S)N/C1=C/c1cccc(OCc2ccccc2)c1,,H37Rv,,EC50,<6.25 µg/mL
C=CCc1cc(OC)c2c(c1OC)OCO2,BACTEC,H37Rv,12.5 µg/mL,inhibition,0%
CC(C)(C)c1cc(C(C)(C)C)c2oc(-c3ccc(Br)cc3)nc2c1,BACTEC,H37Rv,6.25 µg/mL,inhibition,94%
CC(=O)OC1C(=O)[C@H]2[C@@H](CC=C3CC(O)CC(O)[C@@]32C)[C@@H]2CC[C@H]([C@H](C)C3CC(C)C(C)(C)O3)[C@@]12C,BACTEC,H37Rv,,MIC bound,>12.5 µg/mL
O=c1sn(-c2ccc(F)c(Cl)c2)c(=O)n1C1Cc2ccccc2C1,broth dilution,H37Rv,,MIC,6.25 µg/mL